Measurements as given in patent US20220251163A1 (Sinopep-Allsino Biopharmaceutical Co., Ltd., priority 2019, published 2022).

Assay: general procedure: Fmoc solid-phase peptide synthesis; Fmoc-Rink Amide AM Resin (substitution degree 0.35 mmol/g)
Details: whole synthesis, 214 nm, scale of the general procedure 10 g resin

YVEGTFTSDYSIVLDKIAQK(HOOC-(CH2)16-CO-γ-Glu-AEEA-AEEA)AFVQWLIAGGPSSGAPPPS-NH2
final HPLC purity: larger than 98.0%
